Key:
MetRS (T. brucei) = MetRS (T. brucei) (Trypanosoma brucei brucei, UniProt Q38C91); assay: MetRS (T. brucei) ATP depletion assay using Kinase-Glo; format: biochemical; conditions: read-out: A) MetRS (T. brucei) ATP depletion assay using Kinase-Glo, IC50
T. brucei = assay: Growth inhibition assay of T. brucei cell cultures (Alamar Blue, 48 h); format: cell-based; conditions: read-out: B) T. brucei EC50

Chains of the proteins cited; added tags and fusions are not shown. Residues count along the entry.
UniProt Q38C91, 1-773: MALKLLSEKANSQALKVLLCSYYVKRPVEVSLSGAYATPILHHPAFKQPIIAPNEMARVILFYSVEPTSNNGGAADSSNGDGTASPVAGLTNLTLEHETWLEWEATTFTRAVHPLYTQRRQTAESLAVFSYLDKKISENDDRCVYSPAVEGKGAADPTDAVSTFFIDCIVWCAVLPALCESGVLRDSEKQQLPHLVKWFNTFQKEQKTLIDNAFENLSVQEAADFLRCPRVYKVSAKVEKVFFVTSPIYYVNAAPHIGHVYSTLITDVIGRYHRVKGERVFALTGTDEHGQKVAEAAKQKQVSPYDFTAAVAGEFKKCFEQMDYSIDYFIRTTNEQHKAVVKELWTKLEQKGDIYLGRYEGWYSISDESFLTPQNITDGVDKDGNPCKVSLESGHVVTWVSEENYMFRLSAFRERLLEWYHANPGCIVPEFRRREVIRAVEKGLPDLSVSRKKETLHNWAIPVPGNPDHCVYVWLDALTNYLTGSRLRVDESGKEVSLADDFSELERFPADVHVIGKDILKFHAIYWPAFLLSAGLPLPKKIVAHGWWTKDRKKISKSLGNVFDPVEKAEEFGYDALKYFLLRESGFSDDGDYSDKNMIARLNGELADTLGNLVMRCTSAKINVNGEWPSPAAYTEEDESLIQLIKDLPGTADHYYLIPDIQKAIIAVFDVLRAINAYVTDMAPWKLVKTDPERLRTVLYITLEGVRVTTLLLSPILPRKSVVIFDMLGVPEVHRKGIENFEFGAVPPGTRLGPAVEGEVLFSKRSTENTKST

SMILES | IC50 (MetRS (T. brucei)) [µM] | EC50 (T. brucei) [µM]
O=C(C/C=C/c1ccc(Cl)cc1O)NCc1nc2ccccc2[nH]1 | 0.047 | > 1
O=C(NCc1cc(Cl)cc(Cl)c1)Nc1nc2ccc(Cl)cc2[nH]1 | > 10 | 6.38

— patent US10913736B2 (UNIVERSITY OF WASHINGTON, priority 2014, dated 2021)
